Data as given in PubChem BioAssay AID1259414 (Drosophila RNAi Screening Center, 2018).
Screen: 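Host factors increasing or decreasing Wolbachia levels in cultured fly cells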 (primary screen). System: Drosophila JW18 cells infected with Wolbachia. Reagent: long dsRNA against Drosophila genes, 0.25 µg dsRNA per well of a 384-well plate. Time to read-out: 5 days. Conditions: cells persistently infected with Wolbachia before knock-down; no added drug. Measured: 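Imaged fluorescence in situ signal for Wolbachia 23S rRNA per DAPI-counted host cell, given as a robust z-score within each plate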. Reading the numbers: Wolbachia per cell robust z: higher = more Wolbachia per host cell than the plate typical. Active means: 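Hit when robust z is 1.5 or more, or -1.5 or less, in at least two of three replicates; excludes dsRNAs with several or no targets, genes not expressed in JW18 and well A1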.
The screen tested about 24,000 reagents; below is a random part of those with a known target gene and a result. Over the whole deposit, about 1,210 (5%) are marked active. 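Inactive calls also include excluded dsRNAs with several or no targets, genes unexpressed in JW18, and well A1, regardless of score.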 The numbers tell different reagents against one gene apart.

{"target gene":"esc","dsRNA no.":1,"Wolbachia per cell robust z, rep 1":-11.4,"Wolbachia per cell robust z, rep 2":-1.75,"Wolbachia per cell robust z, rep 3":-11.8,"activity call":"active"}
{"target gene":"esc","dsRNA no.":2,"Wolbachia per cell robust z, rep 1":0.0163,"Wolbachia per cell robust z, rep 2":-0.745,"Wolbachia per cell robust z, rep 3":0.155,"activity call":"inactive"}
{"target gene":"CG14074","dsRNA no.":1,"Wolbachia per cell robust z, rep 1":0.459,"Wolbachia per cell robust z, rep 2":-0.795,"Wolbachia per cell robust z, rep 3":0.103,"activity call":"inactive"}
{"target gene":"CG14074","dsRNA no.":2,"Wolbachia per cell robust z, rep 1":-1.36,"Wolbachia per cell robust z, rep 2":-0.548,"Wolbachia per cell robust z, rep 3":-0.669,"activity call":"inactive"}
{"target gene":"CG13898","dsRNA no.":1,"Wolbachia per cell robust z, rep 1":0.0135,"Wolbachia per cell robust z, rep 2":0.186,"Wolbachia per cell robust z, rep 3":0.312,"activity call":"inactive"}
{"target gene":"Gbeta5","dsRNA no.":1,"Wolbachia per cell robust z, rep 1":0.472,"Wolbachia per cell robust z, rep 2":1.08,"Wolbachia per cell robust z, rep 3":0.683,"activity call":"inactive"}
{"target gene":"CG31787","dsRNA no.":1,"Wolbachia per cell robust z, rep 1":1.52,"Wolbachia per cell robust z, rep 2":1.14,"Wolbachia per cell robust z, rep 3":-1.28,"activity call":"inactive"}
{"target gene":"CG43333","dsRNA no.":1,"Wolbachia per cell robust z, rep 1":-0.196,"Wolbachia per cell robust z, rep 2":-1.15,"Wolbachia per cell robust z, rep 3":-0.547,"activity call":"inactive"}
{"target gene":"CG43333","dsRNA no.":2,"Wolbachia per cell robust z, rep 1":-2.33,"Wolbachia per cell robust z, rep 2":0.197,"Wolbachia per cell robust z, rep 3":-4.01,"activity call":"inactive"}
{"target gene":"CG15200","dsRNA no.":1,"Wolbachia per cell robust z, rep 1":0.798,"Wolbachia per cell robust z, rep 2":1.19,"Wolbachia per cell robust z, rep 3":1.18,"activity call":"inactive"}
{"target gene":"CG15200","dsRNA no.":2,"Wolbachia per cell robust z, rep 1":-0.14,"Wolbachia per cell robust z, rep 2":0.347,"Wolbachia per cell robust z, rep 3":-0.176,"activity call":"inactive"}
{"target gene":"Rdh","dsRNA no.":1,"Wolbachia per cell robust z, rep 1":0.427,"Wolbachia per cell robust z, rep 2":4.66,"Wolbachia per cell robust z, rep 3":1.95,"activity call":"inactive"}
{"target gene":"UQCR-14L","dsRNA no.":1,"Wolbachia per cell robust z, rep 1":0.955,"Wolbachia per cell robust z, rep 2":0.402,"Wolbachia per cell robust z, rep 3":0.496,"activity call":"inactive"}
{"target gene":"UQCR-14L","dsRNA no.":2,"Wolbachia per cell robust z, rep 1":-3.72,"Wolbachia per cell robust z, rep 2":0.199,"Wolbachia per cell robust z, rep 3":0.139,"activity call":"inactive"}
{"target gene":"UQCR-14L","dsRNA no.":3,"Wolbachia per cell robust z, rep 1":-1,"Wolbachia per cell robust z, rep 2":-0.63,"Wolbachia per cell robust z, rep 3":-1.79,"activity call":"inactive"}
{"target gene":"ssp2","dsRNA no.":1,"Wolbachia per cell robust z, rep 1":-1.99,"Wolbachia per cell robust z, rep 2":0.846,"Wolbachia per cell robust z, rep 3":0.758,"activity call":"inactive"}
{"target gene":"ssp2","dsRNA no.":2,"Wolbachia per cell robust z, rep 1":-14.5,"Wolbachia per cell robust z, rep 2":-0.842,"Wolbachia per cell robust z, rep 3":0.376,"activity call":"inactive"}
{"target gene":"CG11037","dsRNA no.":1,"Wolbachia per cell robust z, rep 1":-1.97,"Wolbachia per cell robust z, rep 2":0.317,"Wolbachia per cell robust z, rep 3":-5.26,"activity call":"inactive"}
{"target gene":"CG3609","dsRNA no.":1,"Wolbachia per cell robust z, rep 1":-1.93,"Wolbachia per cell robust z, rep 2":0.86,"Wolbachia per cell robust z, rep 3":1.37,"activity call":"inactive"}
{"target gene":"CG3609","dsRNA no.":2,"Wolbachia per cell robust z, rep 1":-6.55,"Wolbachia per cell robust z, rep 2":1.01,"Wolbachia per cell robust z, rep 3":0.526,"activity call":"inactive"}
{"target gene":"CG31482","dsRNA no.":1,"Wolbachia per cell robust z, rep 1":-0.59,"Wolbachia per cell robust z, rep 2":-0.0281,"Wolbachia per cell robust z, rep 3":0.0486,"activity call":"inactive"}
{"target gene":"CG32772","dsRNA no.":1,"Wolbachia per cell robust z, rep 1":0.953,"Wolbachia per cell robust z, rep 2":-0.0759,"Wolbachia per cell robust z, rep 3":-0.368,"activity call":"inactive"}
{"target gene":"CG32772","dsRNA no.":2,"Wolbachia per cell robust z, rep 1":-0.903,"Wolbachia per cell robust z, rep 2":-0.0519,"Wolbachia per cell robust z, rep 3":0.977,"activity call":"inactive"}
{"target gene":"unc-13","dsRNA no.":1,"Wolbachia per cell robust z, rep 1":-0.944,"Wolbachia per cell robust z, rep 2":0.191,"Wolbachia per cell robust z, rep 3":-5.46,"activity call":"inactive"}
{"target gene":"unc-13","dsRNA no.":2,"Wolbachia per cell robust z, rep 1":0.622,"Wolbachia per cell robust z, rep 2":-0.205,"Wolbachia per cell robust z, rep 3":-1.03,"activity call":"inactive"}
{"target gene":"unc-13","dsRNA no.":3,"Wolbachia per cell robust z, rep 1":-2.04,"Wolbachia per cell robust z, rep 2":1.86,"Wolbachia per cell robust z, rep 3":-0.497,"activity call":"inactive"}
{"target gene":"unc-13","dsRNA no.":4,"Wolbachia per cell robust z, rep 1":-2.03,"Wolbachia per cell robust z, rep 2":-1.57,"Wolbachia per cell robust z, rep 3":-0.651,"activity call":"active"}
